Anti-infective test results gathered from many reports (values: NIAID ChemDB through PubChem).

Common to all: whole-cell or culture tests; organism: Coxsackie virus; cell line: VERO; read-out: EC50

ECn: concentration that inhibits the pathogen or its effect by n%.

structure	strain or isolate	method	result
Nc1ncnc2c1ncn2[C@@H]1C=C(CO)[C@@H](O)[C@H]1O	TYPE B4	cytopathic effect	>40 µg/mL
CC(C)Nc1ncnc2c1ncn2C1C[C@H](CO)[C@@H](CO)C1	B4		>100 µg/mL
CCOC(=O)CSc1nnc(-c2cn(-c3ccccc3)nc2-c2ccccc2)n1N	TYPE B4	cytopathic effect	>16 µg/mL
CC1(CO)CCC(Cn2cnc3c(=O)[nH]cnc32)C1(C)C	TYPE B4	cytopathic effect	>200 µg/mL
Cc1ccc(C(=O)CCCCCCOc2ccc(C3=NCC(C)O3)cc2)s1	TYPE B2	cytopathic effect	>25.97 µM
O=c1ccn([C@@H]2C[C@H](CO)C[C@H]2CO)c(=O)[nH]1	B4		>100 µg/mL
Cc1cccn2c(C3OCCO3)cnc12	TYPE B4		>1000 µM
COc1ccc2[nH]c3c(c2c1)CCN1OCSCC(N)[C@@H]31	TYPE B4	cytopathic effect	0.07 µg/mL
OC[C@H]1O[C@@H](c2cc(/C=C/Br)c(F)cc2F)C[C@@H]1O	TYPE B4	cytopathic effect	>16 µg/mL
CCOC(=O)Sc1nnc(-c2cn(-c3ccccc3)nc2-c2ccccc2)n1N	TYPE B4	cytopathic effect	>80 µg/mL
NC1CSCON2CCc3c([nH]c4ccccc34)[C@H]12	TYPE B4	cytopathic effect	0.4 µg/mL
Cc1cn([C@H]2OC[C@@H](CO)C2F)c(=O)[nH]c1=O	TYPE B4	cytopathic effect	>80 µg/mL
CCOC(=O)C1Sc2nnc(-c3cn(-c4ccccc4)nc3-c3ccccc3)n2NC1=O	TYPE B4	cytopathic effect	>16 µg/mL
CCOc1ccc(-c2cc(N3CCCCC3)no2)c(O)c1	ATCC VR28 (TYPE B1)	cytopathic effect	>347 µM
CC=NC(=N)c1nc(-c2ccc(OC)cc2)n(COCCO)n1	TYPE B4	cytopathic effect	>100 µg/mL
NC(=O)CSc1ncnc2c1cnn2CCCCO	TYPE B4	cytopathic effect	>400 µg/mL
CC=NC(=N)c1nc(-c2ccc(C)cc2)n(C/C=C/c2ccccc2)n1	TYPE B4	cytopathic effect	>10 µg/mL
Cc1ccccc1NC(=O)c1cccc2[nH]c(-c3ccncc3)nc12	TYPE B3		2.23 µg/mL
CCOc1ccc(-c2cc(N(CC)CC)no2)c(O)c1	ATCC VR28 (TYPE B1)	cytopathic effect	>362 µM
Nc1nccc2c1ncn2[C@@H]1C[C@H](CO)[C@@H](O)[C@H]1O	TYPE B4	cytopathic effect	2 µg/mL
COc1cc(OC)c(OC)cc1/C=N/N=C(/N)NO.Cc1ccc(S(=O)(=O)O)cc1	ATCC VR28 (TYPE B1)	plaque count	>50 µM
O=C1C=CN(COCCO)S(=O)(=O)N1COCCO	TYPE B4		>400 µg/mL
Nc1ncnc2c1ncn2[C@@H]1C=C(CO)[C@@H](O)[C@@H]1O	TYPE B4	cytopathic effect	100 µg/mL
Cc1cn([C@@H]2OC[C@H](CO)[C@H]2O)c(=O)[nH]c1=O	TYPE B4	cytopathic effect	>80 µg/mL
Cc1ccc(C(=O)CCCCOc2ccc(C3=N[C@H](C)CO3)cc2)s1	TYPE B5	cytopathic effect	9.24 µM
CC1(CO)CCC(Cn2nnc3c(Cl)nc(N)nc32)C1(C)C	TYPE B4	cytopathic effect	>100 µg/mL
Cc1cccn2c(C3OCCS3)cnc12	TYPE B4		>1000 µM
CON1CCc2c([nH]c3ccccc23)[C@@H]1[C@@H](N)CSC	TYPE B4	cytopathic effect	>40 µg/mL
c1ccc(C2=Nn3c(nnc3-c3cn(-c4ccccc4)nc3-c3ccccc3)SC2)cc1	TYPE B4	cytopathic effect	>16 µg/mL
CCOC(=O)C1=CN(COCCO)S(=O)(=O)NC1=O	TYPE B4		>400 µg/mL
Nc1ncnc2c1ncn2C[C@H](O)CO	TYPE B4	cytopathic effect	100 µg/mL
C=C(N=CC)c1nc(-c2ccc(C)cc2)n(C2O[C@H](CO)[C@@H](O)[C@H](O)[C@H]2O)n1	TYPE B4	cytopathic effect	>100 µg/mL
Nn1c(SCC(=O)O)nnc1-c1cn(-c2ccccc2)nc1-c1ccccc1	TYPE B4	cytopathic effect	>80 µg/mL
Clc1ccc(-c2nc3ccn(Cc4ccc(Br)cc4)cc-3n2)cc1	NANCY (TYPE B3)	cytopathic effect	8.47 µg/mL
Cc1cn([C@H]2C/C(=N\O)[C@@H](CO)O2)c(=O)[nH]c1=O		cytopathic effect	>200 µg/mL
CC1(CO)CCC(Cn2ccc(=O)[nH]c2=O)C1(C)C	TYPE B4	cytopathic effect	>400 µg/mL
CC=NC(=N)c1nc(-c2ccc(OC)cc2)n(Cc2ccccc2)n1	TYPE B4	cytopathic effect	>10 µg/mL
COc1cc(/C=N/N=C(/N)NO)cc(OC)c1OC.Cc1ccc(S(=O)(=O)O)cc1	ATCC VR28 (TYPE B1)	plaque count	0.7 µM
Nc1ncnc2c1ncn2C1CC(COP(=O)(O)O)[C@@H](O)[C@H]1O	TYPE B4	cytopathic effect	≥10 µg/mL
C=C(N=CC)c1nc(-c2ccccc2)n(C2O[C@H](CO)[C@@H](O)[C@H](O)[C@H]2O)n1	TYPE B4	cytopathic effect	>200 µg/mL
CC1(CO)CCC(Cc2nc3ncnc(N)c3[nH]2)C1(C)C	TYPE B4	cytopathic effect	>10 µg/mL
FC(F)(F)c1ccccc1Cn1ccc2nc(-c3ccccc3)nc-2c1	NANCY (TYPE B3)	cytopathic effect	8.95 µg/mL
Nc1ncnc2c1ncn2[C@@H]1C[C@H](COP(=O)(O)O)[C@@H](O)[C@H]1O	TYPE B4	cytopathic effect	>200 µg/mL
CCN(CC)c1noc(-c2ccc(O)cc2O)c1Cc1c(N(CC)CC)noc1-c1ccc(OC)cc1O	ATCC VR28 (TYPE B1)	cytopathic effect	>3.5 µM
CC1(CO)CCC(Cn2cnc3c(Cl)nc(N)nc32)C1(C)C	TYPE B4	cytopathic effect	>200 µg/mL
NC(=O)CSc1ncnc2c1cnn2COCC(O)CO	TYPE B4	cytopathic effect	>400 µg/mL
C=C(N=CC)c1nc(-c2cccc(C)c2)n(C2O[C@H](CO)[C@@H](O)[C@H](O)[C@H]2O)n1	TYPE B4	cytopathic effect	>100 µg/mL
O=c1[nH]c(=O)n([C@@H]2C[C@H](CO)C[C@H]2CO)cc1I	B4		>100 µg/mL
CCN(CC)c1cc(-c2ccc(OC)cc2O)on1	ATCC VR28 (TYPE B1)	cytopathic effect	>381 µM
Cc1ccn2c(C3OCCO3)cnc2c1	TYPE B4		>1000 µM
Cc1ccc(C(=O)CCCCOc2ccc(C3=NC(C)CO3)cc2)s1	TYPE B5	cytopathic effect	21.01 µM
Cn1cc(CCCCOc2ccc(C(=O)O)cc2)cc1C=O		plaque count	>380 µM
C=C(N=CC)c1nc(-c2ccccc2)n([C@@H]2O[C@H](CO)[C@@H](O)[C@H]2O)n1	TYPE B4	cytopathic effect	>100 µg/mL
Cc1ccn2c(C3SCCS3)cnc2c1	TYPE B4		>1000 µM
Nc1ncnc2c1ncn2[C@@H]1C=C(CO)[C@@H](O)C1	TYPE B4	cytopathic effect	40 µg/mL
Cc1ccc(C(=O)CCCCCCOc2ccc(C3=NCCO3)cc2)s1	TYPE B2	cytopathic effect	>26.95 µM
CC1(CO)CCC(Cn2cnc3c(N)nc(N)nc32)C1(C)C	TYPE B4	cytopathic effect	>40 µg/mL
C=CC1=C[C@@H](n2cnc3c(N)ncnc32)[C@H](O)[C@@H]1O	TYPE B4	cytopathic effect	>200 µg/mL
COc1ccc(/C=N/N=C(/N)NO)c(OC)c1OC.Cc1ccc(S(=O)(=O)O)cc1	ATCC VR28 (TYPE B1)	plaque count	>50 µM
CN(C)c1cccc(-c2nc3ccn(Cc4ccc(Br)cc4)cc-3n2)c1	NANCY (TYPE B3)	cytopathic effect	6.1 µg/mL
Nc1ccn([C@@H]2OC[C@H](CO)[C@H]2O)c(=O)n1	TYPE B4	cytopathic effect	>80 µg/mL
CCC(Sc1ncnc2c1cnn2COCCO)C(N)=O	TYPE B4	cytopathic effect	>400 µg/mL
CC(=O)OCCOCN1C=CC(=O)N(COCCO)S1(=O)=O	TYPE B4		>400 µg/mL
CC=NC(=N)c1nc(-c2ccccc2)n(Cc2ccccc2)n1	TYPE B4	cytopathic effect	>4 µg/mL

Repeating the first 8 entries:

{"structure": "Nc1ncnc2c1ncn2[C@@H]1C=C(CO)[C@@H](O)[C@H]1O", "strain or isolate": "TYPE B4", "method": "cytopathic effect", "result": ">40 µg/mL"}
{"structure": "CC(C)Nc1ncnc2c1ncn2C1C[C@H](CO)[C@@H](CO)C1", "strain or isolate": "B4", "result": ">100 µg/mL"}
{"structure": "CCOC(=O)CSc1nnc(-c2cn(-c3ccccc3)nc2-c2ccccc2)n1N", "strain or isolate": "TYPE B4", "method": "cytopathic effect", "result": ">16 µg/mL"}
{"structure": "CC1(CO)CCC(Cn2cnc3c(=O)[nH]cnc32)C1(C)C", "strain or isolate": "TYPE B4", "method": "cytopathic effect", "result": ">200 µg/mL"}
{"structure": "Cc1ccc(C(=O)CCCCCCOc2ccc(C3=NCC(C)O3)cc2)s1", "strain or isolate": "TYPE B2", "method": "cytopathic effect", "result": ">25.97 µM"}
{"structure": "O=c1ccn([C@@H]2C[C@H](CO)C[C@H]2CO)c(=O)[nH]1", "strain or isolate": "B4", "result": ">100 µg/mL"}
{"structure": "Cc1cccn2c(C3OCCO3)cnc12", "strain or isolate": "TYPE B4", "result": ">1000 µM"}
{"structure": "COc1ccc2[nH]c3c(c2c1)CCN1OCSCC(N)[C@@H]31", "strain or isolate": "TYPE B4", "method": "cytopathic effect", "result": "0.07 µg/mL"}

Neighbouring rows are from separate reports. Blank or dashed fields: not listed here.